Taken from: PubChem BioAssay AID504761 (Drosophila RNAi Screening Center, 2011)

- Purpose: 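Insect host genes that dengue virus relies on to spread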 (primary screen)
- Cells: D.Mel-2 cells from Drosophila
- Knock-down reagent: long dsRNA against Drosophila genes
- Conditions: infection with dengue virus type 2; dose and infection time not stated
- Read-out: 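Per well on two replicate plates, imaging gave the percent of cells positive for viral envelope protein, ranked by infection, and a nuclear count of cells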
- Scale: infection score: higher = more virus-infected cells
- Rule for the call: 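Low infection ranks in the two replicates (chance level up to 0.065) followed by a retest with a 1.5-fold or larger significant decrease, p below 0.05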
- Meaning of the calls: active = confirmed: knock-down lowers infection; inactive = not picked or not confirmed
In all, the deposit lists about 22,000 reagents; shown is an unselected part of those with a known target gene and a result. Over the whole deposit, 116 (0.52%) were called active. 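Calls depend on retest data that are not deposited; infection was ranked per plate without normalising between plates; the unit of the infection score is not given.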 Names joined by + are all predicted targets of the reagent. Not all columns of the deposit are shown. Not given: the amount of reagent, the time to read-out.

target gene | dsRNA | infection score, replicate 1 | activity call
GstO3 (Glutathione S transferase O3) | DRSC10710 | 2.7 | inactive
Ire1 (Inositol-requiring enzyme-1) | DRSC15606 | 12.9 | inactive
CG9269 | DRSC16465 | 1.05 | inactive
Argk2 (Arginine kinase 2) | DRSC10483 | 2.13 | inactive
Argk2 (Arginine kinase 2) | DRSC23349 | 2.99 | inactive
Argk2 (Arginine kinase 2) | DRSC28762 | 16.8 | inactive
ND-MLRQ (NADH dehydrogenase (ubiquinone) MLRQ subunit) | DRSC11913 | 3.5 | inactive
mthl13 (methuselah-like 13) | DRSC05238 | 3.85 | inactive
CG9815 | DRSC04567 | 17.5 | inactive
CG9815 | DRSC25175 | 5.39 | inactive
Ugalt (UDP-galactose transporter) | DRSC18467 | 4.74 | inactive
pain (painless) | DRSC04273 | 6.35 | inactive
pain (painless) | DRSC28351 | 12.1 | inactive
CG18735 | DRSC04312 | 0.55 | inactive
CG18735 | DRSC24372 | 10.1 | inactive
CG32633 | DRSC18987 | 3.94 | inactive
rho-7 (rhomboid-7) | DRSC07304 | 6.59 | inactive
ATP7 | DRSC19819 | 0.89 | inactive
CG34176 | DRSC00435 | 2.64 | inactive
bond (james bond) | DRSC16135 | 5.14 | inactive
bond (james bond) | DRSC23724 | 10.4 | inactive
SCCRO3 (Squamous cell carcinoma-related oncogene 3) | DRSC06359 | 10.4 | inactive
SCCRO3 (Squamous cell carcinoma-related oncogene 3) | DRSC26409 | 4.44 | inactive
Arl6 (ADP ribosylation factor-like 6) | DRSC07031 | 1.69 | inactive
pyr (pyramus) | DRSC24993 | 7.37 | inactive
Nplp3 (Neuropeptide-like precursor 3) | DRSC25046 | 1.95 | inactive
CR33283 (pseudo) | DRSC22918 | 0.68 | inactive
chm (chameau) | DRSC03341 | 3.11 | inactive
chm (chameau) | DRSC24941 | 8.35 | inactive
Usp14 (Ubiquitin specific protease 14) | DRSC02853 | 19.1 | inactive
Usp14 (Ubiquitin specific protease 14) | DRSC26748 | 9.11 | inactive
DIP-delta (Dpr-interacting protein delta) | DRSC10214 | 10 | inactive
DIP-delta (Dpr-interacting protein delta) | DRSC10450 | 11.6 | inactive
PNUTS (Phosphatase 1 nuclear targeting subunit) | DRSC00638 | 4.73 | inactive
PNUTS (Phosphatase 1 nuclear targeting subunit) | DRSC23503 | 5.29 | inactive
CG17261 | DRSC00498 | 4.26 | inactive
Or85a (Odorant receptor 85a) | DRSC16764 | 15.4 | inactive
Pvr (PDGF- and VEGF-receptor related) | DRSC03080 | 12.8 | inactive
CG32640 + CG32641 | DRSC22885 | 2.12 | inactive
CG31826 | DRSC03357 | 2.64 | inactive
Hpd (4-hydroxyphenylpyruvate dioxygenase) | DRSC11670 | 9.19 | inactive
Hpd (4-hydroxyphenylpyruvate dioxygenase) | DRSC27639 | 2.37 | inactive
Fur2 (Furin 2) | DRSC19817 | 6.81 | inactive
CG13685 | DRSC10043 | 3.46 | inactive
CG13685 | DRSC30064 | 9.23 | inactive
CG2926 | DRSC12321 | 4.75 | inactive
CG34247 | DRSC09933 | 5.88 | inactive
CG2519 | DRSC12312 | 3.22 | inactive
Sf3b2 (Splicing factor 3b subunit 2) | DRSC00619 | 13.1 | inactive
PHDP (Putative homeodomain protein) | DRSC04635 | 11.7 | inactive
CG11737 | DRSC14364 | 3.95 | inactive
CG10376 | DRSC02049 | 22 | inactive
CG10376 | DRSC26744 | 16.6 | inactive
RpL38 (Ribosomal protein L38) | DRSC07818 | 3.8 | inactive
ppk29 (pickpocket 29) | DRSC04205 | 1.11 | inactive
CG9377 | DRSC03217 | 14.4 | inactive
mRpS26 (mitochondrial ribosomal protein S26) | DRSC10823 | 8.82 | inactive
mRpS26 (mitochondrial ribosomal protein S26) | DRSC27288 | 30.5 | inactive

Entries above whose target name begins with P or p:
target gene | dsRNA | infection score, replicate 1 | activity call
pain (painless) | DRSC04273 | 6.35 | inactive
pain (painless) | DRSC28351 | 12.1 | inactive
pyr (pyramus) | DRSC24993 | 7.37 | inactive
PNUTS (Phosphatase 1 nuclear targeting subunit) | DRSC00638 | 4.73 | inactive
PNUTS (Phosphatase 1 nuclear targeting subunit) | DRSC23503 | 5.29 | inactive
Pvr (PDGF- and VEGF-receptor related) | DRSC03080 | 12.8 | inactive
PHDP (Putative homeodomain protein) | DRSC04635 | 11.7 | inactive
ppk29 (pickpocket 29) | DRSC04205 | 1.11 | inactive
